Pooled drug test results. Numbers come from NIAID ChemDB, via PubChem.

Shared fields: growth or infection tests; organism: Mycobacterium avium complex; read-out: MIC

a–b is a range or a potency band.

smiles	strain	value
CO[C@H]1/C=C/O[C@@]2(C)Oc3c(C)c(O)c4c(=O)c(c5oc6cc(N7CCC7)cc(=O)c6nc5c4c3=C2O)NC(=O)/C(C)=C\C=C\[C@H](C)[C@H](O)[C@@H](C)[C@@H](O)[C@@H](C)[C@H](OC(C)=O)[C@@H]1C	31F093T	0.15 µg/mL
CC[C@H]1OC(=O)[C@H](C)[C@@H](OC2C[C@@](C)(OC)[C@@H](O)[C@H](C)O2)[C@H](C)[C@@H](O[C@@H]2O[C@H](C)C[C@H](N(C)C)[C@H]2O)C(C)(O)C[C@@H](C)/C(=N\OCc2ccccc2)[C@H](C)[C@@H](O)[C@]1(C)O	20096 (clarithromycin-resistant)	>50 µg/mL
CO[C@H]1/C=C/O[C@@]2(C)Oc3c(C)c(O)c4c(=O)c(c5oc6cc(N7CCN(C(C)(C)C)CC7)cc(=O)c6nc5c4c3=C2O)NC(=O)/C(C)=C\C=C\[C@H](C)[C@H](O)[C@@H](C)[C@@H](O)[C@@H](C)[C@H](OC(C)=O)[C@@H]1C	31F093T	0.017 µg/mL
CCCCN(CC)CNC(=O)c1cnccn1	ATCC49601	>128 µg/mL
C/C(=N\NC(=O)c1ccncc1)c1cccc(F)c1	12592 PI	>1 µg/mL
CN1N=C(c2ccncc2)OC1c1ccc(Cl)c(Cl)c1	12592 PI	>20 µg/mL
CCCCCCCCO[C@H]1O[C@H](CO[C@H]2O[C@H](COC(=O)c3ccccc3)[C@@H](OC(=O)c3ccccc3)[C@@H]2OC(=O)c2ccccc2)[C@@H](O)[C@@H]1O	NJ211	>128 µg/mL
NC(=O)c1cnc(Cl)cn1	101	32 µg/mL
CCN=c1cc2n(-c3ccc(Cl)cc3)c3ccccc3nc-2cc1Nc1ccc(Cl)cc1	101	0.25 µg/mL
O=C(NCN1CCCC1)c1cnccn1	101	>128 µg/mL
CC/C=C/CCNC(=O)O[C@H]1C(O[C@@H]2[C@@H](C)[C@H](O[C@H]3C[C@@](C)(OC)[C@@H](OC(C)=O)[C@H](C)O3)[C@@H](C)C(=O)O[C@H](CC)[C@@](C)(O)[C@H](O)[C@@H](C)/C(=N/OCCCC3CCCCC3)[C@H](C)CC2(C)O)O[C@H](C)C[C@@H]1N(C)C	20092	0.1 µg/mL
C/C(=N\NC(=O)c1ccncc1)c1ccc(Cl)cc1Cl	12592 PI	>20 µg/mL
CS/C(N)=N\N=C\c1cccnc1	ATCC 19421	>100 µg/mL
CO/C(=N\N=C\c1cccc(C(C)(F)F)c1)c1ccncc1	12592 PI	>5 µg/mL
C[C@@H]1CN(c2c(F)c(N)c3c(=O)c(C(=O)O)cn(C4CC4)c3c2F)C[C@H](C)N1	CIPT 140310030	1.5 µg/mL
CC[C@H]1OC(=O)[C@H](C)[C@@H](O[C@H]2C[C@@](C)(OC)[C@@H](OC(C)=O)[C@H](C)O2)[C@H](C)[C@@H](OC2O[C@H](C)C[C@H](N(C)C)[C@H]2OC(=O)NCC(=O)NC)C(C)(O)C[C@@H](C)/C(=N\OCCCC2CCCCC2)[C@H](C)[C@@H](O)[C@]1(C)O	20096	0.78 µg/mL
COc1cc(NC(C)CCCN)c2nccc(COc3cccc(C(F)(F)F)c3)c2c1Cc1cccc(C(F)(F)F)c1	5 clinical isolates	>16 µg/mL
CC[C@H]1OC(=O)[C@H](C)[C@@H](O[C@H]2C[C@@](C)(OC)[C@@H](OC(C)=O)[C@H](C)O2)[C@H](C)[C@@H](OC2O[C@H](C)C[C@H](N(C)C)[C@H]2OC(=O)NCCCCCCCCCCCCCCN(C)C)C(C)(O)C[C@@H](C)/C(=N\OCCCC2CCCCC2)[C@H](C)[C@@H](O)[C@]1(C)O	20034	0.39 µg/mL
COc1ccc(C2OC(c3ccncc3)=NN2C)cc1F	12592 PI	>20 µg/mL
C/C(=N\NC(=O)c1ccncc1)c1cccc(Cl)c1	12592 PI	>20 µg/mL
CO[C@H]1/C=C/O[C@@]2(C)Oc3c(C)c(O)c4c(=O)c(c5oc6cc(N7CCN(CC(C)C)CC7)cc(=O)c6nc5c4c3=C2O)NC(=O)/C(C)=C\C=C\[C@H](C)[C@H](O)[C@@H](C)[C@@H](O)[C@@H](C)[C@H](OC(C)=O)[C@@H]1C	N-260	0.05 µg/mL
CO[C@H]1/C=C/O[C@@]2(C)Oc3c(C)c(O)c4c(O)c(c5c(c4c3C2=O)NC2(CCN(CC(C)C)CC2)N=5)=NC(=O)/C(C)=C\C=C\[C@H](C)[C@H](O)[C@@H](C)[C@@H](O)[C@@H](C)[C@H](OC(C)=O)[C@@H]1C	242-5	0.125 µg/mL
CN1CCN(CNC(=O)c2cnccn2)CC1	ATCC49601	>128 µg/mL
COc1c(N2CCNC(C)C2)c(F)cc2c(=O)c(C(=O)O)cn(C3CC3)c12	26778	8 µg/mL
CC[C@H]1OC(=O)[C@H](C)[C@@H](O[C@H]2C[C@@](C)(OC)[C@@H](OC(C)=O)[C@H](C)O2)[C@H](C)[C@@H](O[C@@H]2O[C@H](C)C[C@H](N(C)C)[C@H]2O)C(C)(O)C[C@@H](C)/C(=N\OCCCCCc2ccccc2)[C@H](C)[C@@H](O)[C@]1(C)O	20039 (clarithromycin-susceptible)	1.56 µg/mL
COCCN(CCOC)c1cc(=O)c2nc3c(oc2c1)c1c(=O)c2c(O)c(C)c4c(c23)=C(O)[C@@](C)(O/C=C/[C@H](OC)[C@@H](C)[C@@H](OC(C)=O)[C@H](C)[C@H](O)[C@H](C)[C@@H](O)[C@@H](C)/C=C/C=C(/C)C(=O)N1)O4	31F093T	0.6 µg/mL
CN1N=C(c2ccncc2)OC1c1cccc(F)c1	12592 PI	>20 µg/mL
CCCOc1ccc(OCC)cc1NCc1cnc2nc(N)nc(N)c2c1C	NJ211	0.25 µg/mL
O[C@H](c1cc2ccc(C(F)(F)F)cc2c2cc(C(F)(F)F)ccc12)[C@H]1CCCCN1	5 clinical isolates	4–8 µg/mL
Nc1ccc(S(=O)(=O)c2ccc(N)cc2)cc1	9141	32 µg/mL
O=C(NCCCl)N1CCC(CN=c2cc3n(-c4ccc(Cl)cc4)c4ccccc4nc-3cc2Nc2ccc(Cl)cc2)CC1	100	8 µg/mL
COc1ccc(/C(C)=N/NC(=O)c2ccncc2)c(OC)c1	12592 PI	>10 µg/mL
COc1ccc(C2OC(c3ccncc3)=NN2C)c(OC)c1	12592 PI	>20 µg/mL
CC[C@H]1OC(=O)[C@H](C)[C@@H](O[C@H]2C[C@@](C)(OC)[C@@H](O)[C@H](C)O2)[C@H](C)[C@@H](O[C@@H]2O[C@H](C)C[C@H](N(C)C)[C@H]2O)[C@](C)(OC)C[C@@H](C)C(=O)[C@H](C)[C@@H](O)[C@]1(C)O	Isolate 90-0731	2 µg/mL
O=C(O)c1ccccn1	N-260	6000 µg/mL
CC[C@H]1OC(=O)[C@H](C)[C@@H](O[C@H]2C[C@@](C)(OC)[C@@H](OC(C)=O)[C@H](C)O2)[C@H](C)[C@@H](OC2O[C@H](C)C[C@H](N(C)C)[C@H]2OC(N)=O)C(C)(O)C[C@@H](C)/C(=N\OCCCC2CCCCC2)[C@H](C)[C@@H](O)[C@]1(C)O	20092	>50 µg/mL
CC1(C)N=C(N)N=C(N)N1OCCCOc1cc(Cl)c(Cl)cc1Cl	1928	2 µg/mL
N[C@@H]1CN(c2c(F)cc3c(=O)c(C(=O)O)cn([C@@H]4C[C@@H]4F)c3c2Cl)CC12CC2	109	8–16 µg/mL
CO[C@H]1/C=C/O[C@@]2(C)Oc3c(C)c(O)c4c(=O)c(c5oc6cc(N(C)CCc7ccccn7)cc(=O)c6nc5c4c3=C2O)NC(=O)/C(C)=C\C=C\[C@H](C)[C@H](O)[C@@H](C)[C@@H](O)[C@@H](C)[C@H](OC(C)=O)[C@@H]1C	31F093T	1.25 µg/mL
CC[C@H]1OC(=O)[C@H](C)[C@@H](O[C@H]2C[C@@](C)(OC)[C@@H](O)[C@H](C)O2)[C@H](C)[C@@H](O[C@@H]2O[C@H](C)C[C@H](N(C)C)[C@H]2O)[C@](C)(O)C[C@@H](C)/C(=N\OCOCCOC)[C@H](C)[C@@H](O)[C@]1(C)O	Isolate 91-0788	8 µg/mL
CCCCCCCCO[C@H]1O[C@H](CO[C@H]2O[C@H](COC(=O)c3ccccc3)[C@@H](OC(=O)c3ccccc3)[C@@H]2OC(=O)c2ccccc2)[C@@H](OCc2ccccc2)[C@@H]1OCc1ccccc1	NJ211	>128 µg/mL
O[C@@H](c1cc2ccc(C(F)(F)F)cc2c2cc(C(F)(F)F)ccc12)[C@H]1CCCCN1	5 clinical isolates	2–4 µg/mL
CCN(CC)CNC(=O)c1cnccn1	ATCC49601	128 µg/mL
CCCCCCc1ccc2c(c1)C(=O)c1nc3ccncc3c(=O)n1-2	19075	<0.2 µg/mL
CN(CNC(=O)c1cnccn1)Cc1ccccc1	101	128 µg/mL
CO[C@H]1/C=C/O[C@@]2(C)Oc3c(C)c(O)c4c(O)c(c5c(c4c3C2=O)NC2(CCN(CC(C)C)CC2)N=5)=NC(=O)/C(C)=C\C=C\[C@H](C)[C@H](O)[C@@H](C)[C@@H](O)[C@@H](C)[C@H](OC(C)=O)[C@@H]1C	ATCC49601	0.125 µg/mL
CCOCOc1ccc2c(c1)C(=O)c1nc3ccncc3c(=O)n1-2	19075	1 µg/mL
CC[C@H]1OC(=O)[C@H](C)[C@@H](O[C@H]2C[C@@](C)(OC)[C@@H](OC(C)=O)[C@H](C)O2)[C@H](C)[C@@H](OC2O[C@H](C)C[C@H](N(C)C)[C@H]2OC(=O)NC)C(C)(O)C[C@@H](C)/C(=N\OCCCC2CCCCC2)[C@H](C)[C@@H](O)[C@]1(C)O	20034	12.5 µg/mL
COc1cccc2c1[n+]([O-])c1cccc(O)c1[n+]2[O-]	109	≥8 µg/mL
CCCN(CCC)CNC(=O)c1cnccn1	ATCC49601	>128 µg/mL
CC(C)N=c1cc2n(-c3ccc(Cl)cc3)c3ccccc3nc-2cc1Nc1ccc(Cl)cc1	1625	0.25 µg/mL
O=C1c2ccccc2-n2c1nc1ccncc1c2=O	19075	5 µg/mL
CCS/C(N)=N\N=C\c1cccnc1	ATCC 19421	>100 µg/mL
CN[C@@H]1[C@@H](O)C(O[C@@H]2[C@@H](O)[C@H](OC3O[C@H](CN)[C@@H](O)[C@H](O)[C@H]3O)[C@@H](N)C[C@H]2NC(=O)[C@@H](O)CN)OC[C@]1(C)O	J11	50 µg/mL
CCCCN(CCCC)C[C@@H](O)c1cc2c(Cl)cc(Cl)cc2c2cc(C(F)(F)F)ccc12	101 (clarithromycin-resistant)	8 µg/mL

Repeating the final 8 entries:

smiles,strain,value
CC[C@H]1OC(=O)[C@H](C)[C@@H](O[C@H]2C[C@@](C)(OC)[C@@H](OC(C)=O)[C@H](C)O2)[C@H](C)[C@@H](OC2O[C@H](C)C[C@H](N(C)C)[C@H]2OC(=O)NC)C(C)(O)C[C@@H](C)/C(=N\OCCCC2CCCCC2)[C@H](C)[C@@H](O)[C@]1(C)O,20034,12.5 µg/mL
COc1cccc2c1[n+]([O-])c1cccc(O)c1[n+]2[O-],109,≥8 µg/mL
CCCN(CCC)CNC(=O)c1cnccn1,ATCC49601,>128 µg/mL
CC(C)N=c1cc2n(-c3ccc(Cl)cc3)c3ccccc3nc-2cc1Nc1ccc(Cl)cc1,1625,0.25 µg/mL
O=C1c2ccccc2-n2c1nc1ccncc1c2=O,19075,5 µg/mL
CCS/C(N)=N\N=C\c1cccnc1,ATCC 19421,>100 µg/mL
CN[C@@H]1[C@@H](O)C(O[C@@H]2[C@@H](O)[C@H](OC3O[C@H](CN)[C@@H](O)[C@H](O)[C@H]3O)[C@@H](N)C[C@H]2NC(=O)[C@@H](O)CN)OC[C@]1(C)O,J11,50 µg/mL
CCCCN(CCCC)C[C@@H](O)c1cc2c(Cl)cc(Cl)cc2c2cc(C(F)(F)F)ccc12,101 (clarithromycin-resistant),8 µg/mL

Conditions beyond the fields shown may differ between rows.